# Reference: patent US20100196919A1, “PEPTIDES, ANTIBODIES AND FRAGMENTS THEREOF FOR THE TREATMENT AND DIAGNOSTIC OF CELIAC DISEASE” (UNIVERSITÀ DEGLI STUDI DI VERONA, priority 2007, published 2010)
# Columns and labels:
# Format in all cases: binding, human
# serum IgA [1] = experiment: DELFIA for serum IgA antibodies against the celiac peptide; conditions: 60 controls' sera
# serum IgG antibodies = experiment: ELISA for serum IgG antibodies against the synthetic peptides; conditions: 60 patients with CD
# serum IgA [2] = experiment: ELISA for serum IgA antibodies against the synthetic peptides
sequence,measurement,setting,value
VVKVGGSSSLGW [celiac peptide],IgA reactivity to the peptide,serum IgA [1],absent
same,frequency of IgG antibodies against the peptide,serum IgG antibodies,68.3%
same,patients whose serum IgA recognized the peptide,"serum IgA [2]; 22 patients with active disease on GCD (15 out of 22), direct and competitive ELISA",68%
same,IgA reactivity against the peptide,serum IgA [2]; 40 out of 40 patients with Crohn disease,not detected
same,IgA reactivity towards the peptide,serum IgA [2]; 50 out of 50 patients with systemic lupus erythematosus,not detected
same,IgA reactivity towards the peptide,serum IgA [2]; 90 out of 90 patients with systemic sclerosis,not detected
same,patients' sera with reactivity against the synthetic peptide,"serum IgA [2]; ELISA at end of library screening, individual patients' sera, isotype not stated",approximately 65%
same,patients with serum IgA against the peptide,serum IgA [2]; another group of 38 patients with active disease (25 individuals),65.7%
same,patients whose serum IgA recognized the peptide,"serum IgA [2]; the same 22 patients on GFD, number of 22",four
